Here are results for one substance from publication PMC6723440 (Toxins, 2019).

The conditions of series [1]: human, pH 7.4.
The conditions of series [2]: human, pH 7.4. This is another data set of the same source.
For series [3] the following is noted: human, pH 7.4. This is another data set of the same source.

As to 7-β-hydroxy-zearalenol [β-ZOL], in series [1], the “Number of Metabolites (n): Desaturation oxidation, −(H2) +(O2)” value worked out at 0; the “Number of Metabolites (n): Reduction, oxidation, +(H2) +(O)” value was determined as 0; the “share of Oxidation +(O) metabolites in ∑ n” value is on record as 7(88%). Besides, in series [2], the “glucuronides of parent toxins at position C-14” value was determined as 27%; the “share of species, Figure 7 pie” value is 48%; the “sum of parent glucuronides” value was found to be 49%. Moreover, in series [3], the “LC-MS Library: metabolites generated” value was “Phase I metabolites: (-(H4)+(O))- β-ZOL (-(H2)+(O))- β-ZOL (+O)- β-ZOL Glucuronides: Gluc-16- β-ZOL, Gluc-14- β-ZOL, Gluc-7- β-ZOL, Gluc-(+O)- β-ZOL, 2 × Gluc- β-ZOL”.
